One assay deals with SARS-CoV-2 Spike (SARS-CoV-2), P0DTC2. Kind of assay: inhibitor screening kit; SARS-CoV-2 Spike:ACE2 (Example 3 assay).
As for NMTQGFWENPGGPTAWDLGKLWRALWRLWRSLWRLLWK (modifications not checked) [Seq38 (LNCOV-30)], the half-maximal inhibitory concentration (IC50) (usually the concentration that inhibits the measured activity by half) stood at 0.214 µM.

A further assay addresses ACE2, Q9BYF1. Described as above.
GGNYNYLYRLFRK (modifications not checked) [Seq4 (LNCOV-2)] came in with an IC50 of more than 10 µM.
With YFPLQSYGFQPTNGVGYQ (modifications not checked) [Seq8 (LNCOV-6)], the IC50 was more than 10 µM.
Take STEYQAGST (modifications not checked) [Seq5 (LNCOV-3)]: the IC50 is more than 10 µM.
Regarding KVGGNYNYL (modifications not checked) [Seq2 (LNCOV-0)], the IC50 was more than 10 µM.
Molecule GFQPTNGVK (modifications not checked) [Seq10 (LNCOV-8)] showed an IC50 of more than 10 µM.
On the same count and under the same terms, the same measure for VEGFNCYFP (modifications not checked) [Seq7 (LNCOV-5)]: more than 10 µM; for GNYNYLYRL (modifications not checked) [seq3 (LNCOV-1)]: more than 10 µM.
The same measure, in the same setting: the same measure for SYGFQPTNGV (modifications not checked) [Seq9 (LNCOV-7)]: more than 10 µM; for CNGVEGFNC (modifications not checked) [Seq6 (LNCOV-4)]: more than 10 µM; for SKVGGNYNYLYR (modifications not checked) [Seq1 (LNCOV-01)]: more than 10 µM.

Another assay addresses SARS-CoV-2 Spike (SARS-CoV-2), P0DTC2. Kind of assay: inhibitor screening kit; ACE2:SARS-CoV-2 Spike (Example 4 assay).
NMTQGFWENPGGPTAWDLGKLWRALWRLWRSLWRLLWK (modifications not checked) [Seq38 (LNCOV-30)] returned an IC50 of 0.103 µM.

For another assay, the target named is ACE2, Q9BYF1. The description is as above.
For the molecule GGNYNYLYRLFRK (modifications not checked) [Seq4 (LNCOV-2)], the IC50 was more than 10 µM.
The same measure, in the same setting: the same measure for YFPLQSYGFQPTNGVGYQ (modifications not checked) [Seq8 (LNCOV-6)]: more than 10 µM.
Same read-out and setting: the same measure for STEYQAGST (modifications not checked) [Seq5 (LNCOV-3)]: more than 10 µM; for KVGGNYNYL (modifications not checked) [Seq2 (LNCOV-0)]: more than 10 µM; for GFQPTNGVK (modifications not checked) [Seq10 (LNCOV-8)]: more than 10 µM.
Take VEGFNCYFP (modifications not checked) [Seq7 (LNCOV-5)]: the IC50 is more than 10 µM.
On the same count and under the same terms, the same measure for GNYNYLYRL (modifications not checked) [seq3 (LNCOV-1)]: more than 10 µM; for SYGFQPTNGV (modifications not checked) [Seq9 (LNCOV-7)]: more than 10 µM.
Same read-out and setting: the same measure for TNGVGYQPY (modifications not checked) [Seq11 (LNCOV-9)]: more than 1 µM; for CNGVEGFNC (modifications not checked) [Seq6 (LNCOV-4)]: more than 10 µM.
Molecule SKVGGNYNYLYR (modifications not checked) [Seq1 (LNCOV-01)] registered an IC50 of more than 10 µM.
